# Test results from the supplement of paper PMC4723716.
# Only a part is listed here, and it is no random draw.
# Tested on: Plasmodium falciparum NF54 gametocytes
# Experiment: viability index relative to DMSO control (fraction); higher = less gametocyte killing
# Details: 12.5 µM, incubation time: 72 h
# Method in brief: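 P. falciparum NF54 gametocytes at stages I–V were treated with compound at 12.5 µM for 72 hr at 37°C under low oxygen in serum-containing medium (0.50% gametocytemia, 1.25% hematocrit), then stained with MitoTracker Red CMXRos and imaged in serum-free medium containing 500 nM dye. The viability index is the gametocyte particle count divided by the plate mean of solvent-only wells.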
# [1] = gametocyte stage: Stage I viability index
# [2] = gametocyte stage: Stage II viability index
# [3] = gametocyte stage: Stage III viability index
# [4] = gametocyte stage: Stage IV viability index
# [5] = gametocyte stage: Stage V viability index
SMILES,viability index [1],viability index [2],viability index [3],viability index [4],viability index [5]
c1ccc2c(NCCCCCCNc3c4c(nc5ccccc35)CCCC4)c3c(nc2c1)CCCC3,0.166,0.0216,0.0448,0.0538,0.0519
CCC1(C)CC(CCNCc2ccccc2O)(c2ccc(C)cc2)CCO1 (stereo not given),0.0552,0.134,0.521,0.663,0.505
